Measured data: PubChem BioAssay AID624099 (ICCB-Longwood, 2012)
Screen: 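Host factors E2 relies on to silence an HPV18 LCR reporter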 (primary screen). Cells: human C33A cervical carcinoma cells (HPV-negative) stably expressing BPV1 E2 and an HPV18 LCR luciferase reporter. Knock-down reagent: siRNA pool against human genes, 40 nM. Duration: 72 h. Measurement: 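HPV18 LCR reporter light per well, converted to plate-wise z-scores that exclude control wells, and averaged over triplicate plates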. Direction: mean z-score and z-score: higher = stronger reporter signal, weaker E2 silencing. Call rule: 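Mean z ≥ 2 together with z ≥ 2 in two or more of the three replicates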.
Here is one part, drawn at random, of about 21,000 reagents. 497 of all reagents (2.4%) were called active. 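Higher z means weaker E2 silencing; only reporter increases were scored, and knock-downs that hurt cell survival may mask genuine repressor factors.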 Unmarked entries are inactive. Reagent sequences are not shown.

For SLC26A3, the entry reads mean z-score -1.75; z-score, replicate A = -1.61; z-score, replicate B = -1.78; z-score, replicate C = -1.86.
With knock-down of ODC1, the screen gave mean z-score 0.18; z-score, replicate A = 0.05; z-score, replicate B = 0.1; z-score, replicate C = 0.38.
After knock-down of GOLGA3 the results were mean z-score 0.11; z-score, replicate A = 0.32; z-score, replicate B = -0.17; z-score, replicate C = 0.18.
With knock-down of SRP72, the record shows mean z-score 0.59; z-score, replicate A = 0.66; z-score, replicate B = 0.68; z-score, replicate C = 0.44.
For MYL3, the entry reads mean z-score 1.34; z-score, replicate A = 1.16; z-score, replicate B = 1.5; z-score, replicate C = 1.37.
Against APOBEC3C the deposit lists mean z-score 0.66; z-score, replicate A = 0.62; z-score, replicate B = 0.74; z-score, replicate C = 0.63.
For TSPAN3, the entry reads mean z-score -0.2; z-score, replicate A = -0.32; z-score, replicate B = -0.2; z-score, replicate C = -0.09.
Knock-down of APOBR resulted in: mean z-score -0.66; z-score, replicate A = -0.55; z-score, replicate B = -0.81; z-score, replicate C = -0.61.
Depletion of CATSPERD resulted in: mean z-score -0.4; z-score, replicate A = 0.06; z-score, replicate B = -0.48; z-score, replicate C = -0.78.
Knock-down of SNUPN gave: mean z-score 2.26 (active); z-score, replicate A = 1.86; z-score, replicate B = 2.12; z-score, replicate C = 2.8.
PEAR1 scored mean z-score 0.74; z-score, replicate A = 0.9; z-score, replicate B = 0.51; z-score, replicate C = 0.81.
HS2ST1 showed mean z-score 1.36; z-score, replicate A = 1.14; z-score, replicate B = 1.44; z-score, replicate C = 1.48.
After knock-down of ZIC3 the results were mean z-score -1.54; z-score, replicate A = -1.36; z-score, replicate B = -1.64; z-score, replicate C = -1.6.
Knock-down of RFTN2 resulted in: mean z-score 0.61; z-score, replicate A = 0.41; z-score, replicate B = 0.87; z-score, replicate C = 0.57.

Reprinted from above, 3 entries:
APOBR | mean z-score: -0.66; z-score, replicate A: -0.55; z-score, replicate B: -0.81; z-score, replicate C: -0.61
CATSPERD | mean z-score: -0.4; z-score, replicate A: 0.06; z-score, replicate B: -0.48; z-score, replicate C: -0.78
SNUPN | mean z-score: 2.26 (active); z-score, replicate A: 1.86; z-score, replicate B: 2.12; z-score, replicate C: 2.8

Additional results:
Depletion of ACOT2 resulted in: mean z-score -0.46; z-score, replicate A = -0.48; z-score, replicate B = -0.83; z-score, replicate C = -0.09.
Against LOC387701 (retired record), the entry reads mean z-score 0.42; z-score, replicate A = 0.24; z-score, replicate B = 0.68; z-score, replicate C = 0.33.
After knock-down of LOC151256 (retired record), the screen gave mean z-score -0.35; z-score, replicate A = -0.47; z-score, replicate B = -0.38; z-score, replicate C = -0.19.
Against LAT, the entry reads mean z-score -0.57; z-score, replicate A = -0.7; z-score, replicate B = -0.3; z-score, replicate C = -0.7.
CD300LB scored mean z-score -0.2; z-score, replicate A = -0.1; z-score, replicate B = -0.18; z-score, replicate C = -0.31.
Silencing of FGR resulted in: mean z-score -0.21; z-score, replicate A = 0.16; z-score, replicate B = -0.56; z-score, replicate C = -0.24.
After knock-down of SLC35F3, the record shows mean z-score 0.19; z-score, replicate A = 0.15; z-score, replicate B = 0.01; z-score, replicate C = 0.4.
